Compound potency records, mixed from different reports. Data source: NIAID ChemDB in PubChem.

Common to all: toxicity to cultured cells; cell line: MT-4; endpoint: CC50

Blank or dashed fields: not listed here.

c1ccc(-c2nnc3n2-c2ccccc2-n2c(nnc2-c2ccccc2)C3)cc1 ; read by: MTT ; result: 12 µM
c1ncc(CN2CCCNCCNCCCNCC2)cc1CN1CCCNCCNCCCNCC1 ; read by: MTT ; result: >500 µg/mL
CC(C)=CCC/C(C)=C/CC/C(C)=C/CC/C(C)=C/Cc1cc(O)cc2c1OC(=O)C2 ; read by: MTT ; result: 42.37 µM
N#Cc1ccc(Nc2nccc(Oc3cc4c(cc3Br)c(=O)c(C(=O)O)cn4C3CCCC3)n2)cc1 ; read by: MTT ; result: 13.29 µM
C1CNCCCN(CCC[N+]2(CCCN3CCCNCCCNCCC3)CCCNCCCNCCC2)CCCNC1 ; result: 470 µM
Cc1nn(-c2ccccc2)c2nn(N)nc12 ; result: 154 µM
CC(C)n1cc(C(=O)O)c(=O)c2cc(Br)c(Oc3ccnc(Nc4ccc(C#N)cc4)n3)cc21 ; read by: MTT ; result: 23.56 µM
Cc1cccc(N2C(=O)CSC2c2cccnc2)n1 ; result: 343 µM
CCC(=CCN1Cc2c(C)ccc3[nH]c(=S)n(c23)C[C@@H]1C)CC ; result: 80 µM
C1CCNCCCNCCCN(CCCN2CCCNCCCCNCCCN(CCCN3CCCNCCCNCCCCNCCCNCCC3)CCCNCCCCNCCC2)CCCNCCCNC1 ; result: 47.2 µM
O=C(O)C1Nc2ccccc2S(=O)(=O)n2cccc21 ; result: >300 µM
Cc1cn([C@H]2C[C@H](N=[N+]=[N-])[C@@H](CO)O2)c(=O)[nH]c1=O ; read by: MTT ; result: >1 µM
CCOP(=O)(O)COCCn1nnc2c(=O)[nH]c(N)nc21 ; result: >315 µM
C=C(C)CN1Cc2cc(Cl)cc3[nH]c(=O)n(c23)CC1C ; result: 17 µM
COc1ccc2nc3cc(Cl)ccc3c(N3CCN(CCO)CC3)c2c1 ; read by: MTT ; result: 9 µM
CCC(C)Oc1nc(N)cc(S(=O)(=O)c2ccccc2)n1 ; result: 90 µM
C=S(=C)(C)c1ccc(CN2CCC(Nc3nc(Nc4c(C)cc(C)cc4C)c4[nH]cnc4n3)CC2)cc1 ; read by: MTT ; result: 34.64 µM
CCc1cc(NCc2nc3c(C)ccc(C)c3o2)c(=O)[nH]c1C ; result: >60 µM
O=C1CSC(c2c(F)cccc2Cl)N1c1cccc(C(F)(F)F)c1 ; result: 31.88 µM
Nc1ncnc2c1ncn2[C@H]1CC[C@@H](CO)O1 ; result: 1580 µM
O=C(O)c1cc(O)c(O)c(O)c1 ; read by: MTT ; result: 16.99 µM
CCCCn1cc(C(=O)O)c(=O)c2cc(Br)c(Oc3ccnc(Nc4ccc(C#N)cc4)n3)cc21 ; read by: MTT ; result: 10.74 µM
CC(C)=CCN1C(=O)c2cccn2S(=O)(=O)c2ccccc21 ; result: 41 µM
C=C1[C@H](CO)[C@@H](O)C[C@@H]1n1cnc2c(=O)[nH]c(N)nc21 ; read by: MTT ; result: >4.59 µM
COc1ccc2nc3cc(Cl)ccc3c(NCCN3CCCC(O)C3)c2c1 ; read by: MTT ; result: 1.5 µM
CCCn1cc(C(=O)O)c(=O)c2cc(I)c(Oc3ccnc(Nc4ccc(C#N)cc4)n3)cc21 ; read by: MTT ; result: 7.37 µM
C1CNCCCN(CCCN2CCCNCCCNCCC2)CCCNC1 ; result: 518 µM
CCCN1C(=O)c2cccn2S(=O)(=O)c2ccccc21 ; result: 136 µM
CC1c2nnc(-c3ccccc3)n2-c2ccccc2-n2c(-c3ccccc3)nnc21 ; read by: MTT ; result: 4 µM
CCC(C)Oc1cc(N)nc(Sc2ccccc2N)n1 ; result: 200 µM
COCCN1C(=O)c2cccn2S(=O)(=O)c2ccccc21 ; result: >300 µM
Cc1ccnc2c1NC(=O)c1cccnc1N2C1CC1 ; read by: MTT ; result: >200 µM
CN(C)c1ccc(C2SCC(=O)N2c2ccccn2)cc1 ; result: 254 µM
Cc1cc(NS(C)(=O)=O)ccc1N1C(=O)c2ccc(Cl)cc2C1=O ; read by: MTT / absorbance ; result: 0.269 µM
CC(C)=CCN1Cc2cc(Cl)c(Cl)c3[nH]c(=S)n(c23)C[C@@H]1C ; result: 45 µM
C1CCNCCCNCCCNCCCCNCCCNCCCNCCCCNCCCNCCCNCCCNCCCCNCCCNC1 ; result: 74.9 µM
Cc1nn(C)c2c1nnn2Cc1ccccc1 ; result: >200 µM
Cc1cc(NC(=S)c2ccc(Cl)cc2)ccc1N1C(=O)c2ccc(Cl)cc2C1=O ; read by: MTT / absorbance ; result: 0.517 µM
Cc1ccnc2c1NC(=O)c1cccnc1N2C1CC1 ; read by: MTT ; result: 73.87 µM
COc1ccc2nc3cc(Cl)ccc3c(N)c2c1 ; read by: MTT ; result: 1.8 µM
Cc1ccc(C(=O)Nc2ccc(N3C(=O)c4ccc(Cl)cc4C3=O)c(C)c2)cc1 ; read by: MTT / absorbance ; result: 0.616 µM
CCc1nnc2n1-c1ccccc1-n1c(CC)nnc1C2C ; read by: MTT ; result: >200 µM
O=C(CSc1nncnc1-c1cccc2ccccc12)Nc1ccccc1[N+](=O)[O-] ; read by: MTT ; result: 142 µM
C1CCNCCCNCCCNCCCN(CCCN2CCCNCCCNCCC2)CCCNCCCNCCCNC1 ; result: 127 µM
Cc1cccc(N2C(=O)CSC2c2ccc(N(C)C)cc2)n1 ; result: 325 µM
Cc1cn([C@H]2C[C@H](N=[N+]=[N-])[C@@H](CO)O2)c(=O)[nH]c1=O ; read by: MTT ; result: 36.78 µM
CCc1nnc2n1-c1ccccc1-n1c(CC)nnc1C2 ; read by: MTT ; result: >200 µM
Cc1ccccc1NC(=O)CSc1nncnc1-c1cccc2ccccc12 ; read by: MTT ; result: >158 µM
Cc1cc(NS(=O)(=O)c2c(C(C)C)cc(C(C)C)cc2C(C)C)ccc1N1C(=O)c2ccc(Cl)cc2C1=O ; read by: MTT / absorbance ; result: 0.18 µM
C[C@H]1Cn2c(=S)[nH]c3cc(Cl)cc(c32)CN1CC1CCC1 ; result: 28 µM
CCNc1nc2c(o1)c(C)nn2-c1ccccc1 ; result: 29 µM
CCOC(=O)C1Nc2ccccc2Sn2cccc21 ; result: 10 µM
Cc1ccnc2c1NC(=O)c1cccnc1N2C1CC1 ; result: 50 µM
c1ccc2c(c1)-n1c(nnc1-c1ccncc1)Cc1nnc(-c3ccncc3)n1-2 ; read by: MTT ; result: >200 µM
CCOC(=O)CNc1nc2c(o1)c(C)nn2-c1ccccc1 ; result: 20 µM
Nc1cc(Cl)nc(S(=O)(=O)c2ccccc2)n1 ; result: 6 µM
CCOC(=O)C1c2cccn2N(C)c2ccccc2N1C(=O)CCl ; result: 6 µM
Cc1nn(-c2ccccc2)c2nn([C@@H]3O[C@H](CO)[C@@H](O)[C@H]3O)nc12 ; result: 145 µM
CCC(CO)Nc1c2ccc(Cl)cc2nc2ccc(OC)cc12 ; read by: MTT ; result: 9.6 µM
O=C1CCSC(c2c(F)cccc2F)N1Cc1ccco1 ; result: 181.3 µM
Cc1cn([C@H]2C[C@H](N=[N+]=[N-])[C@@H](CO)O2)c(=O)[nH]c1=O ; read by: MTT ; result: >93.55 µM
O=C(CSc1nncnc1-c1cccc2ccccc12)Nc1ccccc1 ; read by: MTT ; result: 154 µM
CCN1C(=O)c2cccn2S(=O)(=O)c2ccccc21 ; result: 168 µM
CC(C)[C@H](NC(=O)N(C)Cc1ccccn1)C(=O)N[C@@H](Cc1ccccc1)[C@H](O)[C@@H](O)[C@H](Cc1ccccc1)NC(=O)[C@@H](NC(=O)N(C)Cc1ccccn1)C(C)C ; result: >100 µM
Cn1cc(C(=O)O)c(=O)c2cc(Br)c(Oc3ccnc(Nc4ccc(C#N)cc4)n3)cc21 ; read by: MTT ; result: 8.78 µM
Cc1nn(-c2ccccc2)c2nc(NCc3ccccc3)oc12 ; result: 23 µM
CCC(=CCN1Cc2c(Br)ccc3[nH]c(=S)n(c23)C[C@@H]1C)CC ; result: 53 µM
O=C1Nc2ccccc2Cn2cccc21 ; result: >300 µM
CC1c2nnc(-c3ccccc3)n2-c2ccc(C(F)(F)F)cc2-n2c(-c3ccccc3)nnc21 ; read by: MTT ; result: 137 µM
O=C(CSc1nncnc1-c1ccccc1Cl)Nc1ccccc1[N+](=O)[O-] ; read by: MTT ; result: 63 µM
CCOC(=O)CNc1c([N+]#N)c(C)nn1-c1ccccc1 ; result: 122 µM
CC1SC(c2c(F)cccc2F)N(Cc2ccco2)C1=O ; result: 118 µM
Nc1nc2c(nnn2CCOCP(=O)(O)O)c(=O)[nH]1 ; result: 69 µM
Cc1cc(NC(=O)Cc2ccc3ccccc3c2)ccc1N1C(=O)c2ccc(Cl)cc2C1=O ; read by: MTT / absorbance ; result: 0.42 µM
CCC(C)Oc1cc(=O)[nH]c(Sc2ccc(C)cc2)n1 ; result: >300 µM
COC(=O)c1ccc(CN2CCC(Nc3nc(Nc4c(C)cc(C)cc4C)c4[nH]cnc4n3)CC2)cc1 ; read by: MTT ; result: 24.06 µM
O=C1CSC(c2ccnc3ccccc23)N1Cc1ccco1 ; result: 81.35 µM
COC(=O)c1sccc1NC(=O)CSc1nncnc1-c1ccccc1Cl ; read by: MTT ; result: 105 µM
C1CNCCCN(CCCN2CCCNCCCN(CCCN3CCCNCCCNCCC3)CCCNCCC2)CCCNC1 ; result: 75.5 µM
C=C(C)CN1Cc2cc(Cl)cc3[nH]c(=S)n(c23)[C@@H](C)C1 ; result: 24 µM
Nc1ncnc2nn(CCOCP(=O)(O)O)nc12 ; result: >365 µM
CCC(C)Oc1nc(N)cc(Sc2ccccc2)n1 ; result: 80 µM
C1CCNCCCNCCCN(CCCN2CCCNCCCNCCCCNCCCNCCCCNCCCNCCC2)CCCNCCCNCCCCNCCCNC1 ; result: 83 µM
Cc1cc(N=C/C=C/c2ccccc2)ccc1N1C(=O)c2ccc(Cl)cc2C1=O ; read by: MTT / absorbance ; result: 0.538 µM
c1cc(CN2CCCNCCNCCCNCC2)cc(-c2cccc(CN3CCCNCCNCCCNCC3)c2)c1 ; read by: MTT ; result: >200 µg/mL
Cc1ccnc2c1NC(=O)c1cccnc1N2C1CC1 ; read by: MTT / absorbance ; result: >10 µM
Cc1cc(C)c(Nc2nc(NC3CCN(Cc4cccc(F)c4)CC3)nc3nc[nH]c23)c(C)c1 ; read by: MTT ; result: 30.68 µM
CCCN1Cc2cccc3[nH]c(=S)n(c23)CC1C ; result: 560 µM
CC(C)=CCC/C(C)=C/CC/C(C)=C/CC/C(C)=C/Cc1cc(O)cc2c1OC(=O)C2=C(C)C ; read by: MTT ; result: 26.08 µM
c1ccc(-c2cc(CN3CCCNCCNCCCNCC3)cc(CN3CCCNCCNCCCNCC3)n2)cc1 ; read by: MTT ; result: >250 µg/mL

The first 9 rows once more:

compound	read by	result
c1ccc(-c2nnc3n2-c2ccccc2-n2c(nnc2-c2ccccc2)C3)cc1	MTT	12 µM
c1ncc(CN2CCCNCCNCCCNCC2)cc1CN1CCCNCCNCCCNCC1	MTT	>500 µg/mL
CC(C)=CCC/C(C)=C/CC/C(C)=C/CC/C(C)=C/Cc1cc(O)cc2c1OC(=O)C2	MTT	42.37 µM
N#Cc1ccc(Nc2nccc(Oc3cc4c(cc3Br)c(=O)c(C(=O)O)cn4C3CCCC3)n2)cc1	MTT	13.29 µM
C1CNCCCN(CCC[N+]2(CCCN3CCCNCCCNCCC3)CCCNCCCNCCC2)CCCNC1	-	470 µM
Cc1nn(-c2ccccc2)c2nn(N)nc12	-	154 µM
CC(C)n1cc(C(=O)O)c(=O)c2cc(Br)c(Oc3ccnc(Nc4ccc(C#N)cc4)n3)cc21	MTT	23.56 µM
Cc1cccc(N2C(=O)CSC2c2cccnc2)n1	-	343 µM
CCC(=CCN1Cc2c(C)ccc3[nH]c(=S)n(c23)C[C@@H]1C)CC	-	80 µM

Rows are shuffled and stem from different studies. CCn: concentration that lowers growth or viability of the cells by n%.